Data: PMC8566969, “Comparison of viral RNA–host protein interactomes across pathogenic RNA viruses informs rapid antiviral drug discovery for SARS-CoV-2” (Cell Research, 2021)

Test: in vitro
Conditions: human

Work on `CC(C)(O)CNc1nc(Nc2ccnc(C(F)(F)F)c2)nc(-c2cccc(C(F)(F)F)n2)n1` [Enasidenib, 2-Methyl-1-(4-(6-(trifluoromethyl)pyridin-2-yl)-6-(2-(trifluoromethyl)pyridin-4-ylamino)-1,3,5-triazin-2-ylamino)propan-2-ol] yielded a CC50 of 32.7 µM.
